A mixed list of measured activities; the numbers were collected in NIAID ChemDB.

All rows: cytotoxicity tests; cells: CEM; measure: CC50

Conditions beyond the fields shown may differ between rows. An empty or dashed field is not shown. CCn: concentration that lowers growth or viability of the cells by n%.

smiles,method,value
COc1ccc2nc(Cl)c(/C=C/C(=O)c3ccc4ccccc4c3)cc2c1,MTS,>100 µM
COC(O)[C@@H]1OC12[C@@H](CO[Si](C)(C)C(C)(C)C)O[C@@H](n1cc(C)c(=O)[nH]c1=O)[C@@H]2O[Si](C)(C)C(C)(C)C,propidium iodide / flow cytometry,22 µM
NC(=O)C(NC(=O)c1ccccc1SSc1ccccc1C(=O)NC(C(N)=O)C(N)=O)C(N)=O,,>100 µM
O=[N+]([O-])c1ccc[n+]([O-])c1SCc1ccccc1,cell count,31 µg/mL
C/C(=N\NC(=O)CN1c2c(-c3ccccc3)n[nH]c2-c2ccccc2S1(=O)=O)c1ccc(C)o1,MTS,15.4 µM
Cc1ccc2nc(Cl)c(/C=C/C(=O)c3ccsc3)cc2c1,MTS,3.2 µM
CC(C)C[C@@H](CO)NC(=O)c1ccccc1SSc1ccccc1C(=O)N[C@H](CO)CC(C)C,,12.4 µM
N#C/C(=C/c1ccc(Cl)cc1Cl)Sc1cccc[n+]1[O-],cell count,5.9 µg/mL
CC(C)(C)[Si](C)(C)OC[C@H]1O[C@@H](n2ccc(=O)[nH]c2=O)[C@H](O[Si](C)(C)C(C)(C)C)C1(O)C(Cl)C(N)=O,propidium iodide / flow cytometry,8 µM
O=[N+]([O-])c1ccc(O)c(CSc2cccc[n+]2[O-])c1,cell count,37 µg/mL
COc1ccc2nc(Cl)c(/C=C/C(=O)c3ccc(I)s3)cc2c1,MTS,71.6 µM
C=CCOC(=O)[C@H](CC(C)C)NC(=O)c1ccccc1SSc1ccccc1C(=O)N[C@@H](CC(C)C)C(=O)OCC=C,,>100 µM
Cc1ccc(C)c(CS(=O)(=O)c2cccc[n+]2[O-])c1,cell count,32 µg/mL
COc1ccc2nc(Cl)c(/C=C/C(=O)c3ccc(Cl)s3)cc2c1,MTS,31.6 µM
O=C(O)CC[C@H](Cc1ccccc1)NC(=O)c1ccccc1SSc1ccccc1C(=O)N[C@H](CCC(=O)O)Cc1ccccc1,,67 µM
C/C(=N\NC(=O)CN1c2c(-c3ccccc3)n[nH]c2-c2ccccc2S1(=O)=O)c1ccc(C)s1,MTS,13.8 µM
Cc1ccc[n+]([O-])c1S(=O)(=O)Cc1ccccc1,cell count,28 µg/mL
C/C(=N\NC(=O)CN1c2c(-c3ccccc3)n[nH]c2-c2ccccc2S1(=O)=O)c1cc(C)oc1C,MTS,9.9 µM
Cc1cn([C@@H]2O[C@H](CO[Si](C)(C)C(C)(C)C)C3(O[C@H]3C(=O)NN)[C@H]2O[Si](C)(C)C(C)(C)C)c(=O)[nH]c1=O,propidium iodide / flow cytometry,5 µM
O=C(NC1(C(=O)O)CCCC1)c1ccccc1SSc1ccccc1C(=O)NC1(C(=O)O)CCCC1,,16 µM
O=S(=O)(Cc1ccc(Cl)cc1Cl)c1cccc[n+]1[O-],cell count,6.2 µg/mL
C/C(=N\NC(=O)CN1c2c(-c3ccccc3)n[nH]c2-c2ccccc2S1(=O)=O)c1cc(Cl)sc1Cl,MTS,14.4 µM
Cc1ccc(C(C)S(=O)c2cccc[n+]2[O-])cc1,cell count,0.59 µg/mL
Cc1ccc2nc(Cl)c(/C=C/C(=O)c3ccc(Cl)s3)cc2c1,MTS,31.6 µM
CC(c1ccc(Cl)cc1)S(=O)c1cccc[n+]1[O-],cell count,0.64 µg/mL
COC(=O)/C=C1/[C@@H](O[Si](C)(C)C(C)(C)C)[C@H](n2cc(C)c(=O)n(C)c2=O)O[C@@H]1CO[Si](C)(C)C(C)(C)C,propidium iodide / flow cytometry,41 µM
Cc1ccc(C)c(CSc2ccc(Cl)c[n+]2[O-])c1,cell count,>100 µg/mL
C/C(=N\NC(=O)CN1c2c(-c3ccccc3)n[nH]c2-c2ccccc2S1(=O)=O)c1ccc2ccccc2c1,MTS,24.2 µM
Cc1cc(C)c(CS(=O)c2cccc[n+]2[O-])c(C)c1,cell count,12 µg/mL
O=C(CN1c2c(-c3ccccc3)n[nH]c2-c2ccccc2S1(=O)=O)N/N=C/c1cccs1,MTS,13.9 µM

Repeating the first 3 entries:

smiles,method,value
COc1ccc2nc(Cl)c(/C=C/C(=O)c3ccc4ccccc4c3)cc2c1,MTS,>100 µM
COC(O)[C@@H]1OC12[C@@H](CO[Si](C)(C)C(C)(C)C)O[C@@H](n1cc(C)c(=O)[nH]c1=O)[C@@H]2O[Si](C)(C)C(C)(C)C,propidium iodide / flow cytometry,22 µM
NC(=O)C(NC(=O)c1ccccc1SSc1ccccc1C(=O)NC(C(N)=O)C(N)=O)C(N)=O,,>100 µM